Results of unrelated studies side by side (data: NIAID ChemDB).

Common to all: host cell toxicity; endpoint: CC50

Two numbers with a dash give a range or band. An empty or dashed field is not shown. CCn is the concentration with n% toxicity to the cells. Conditions beyond the fields shown may differ between rows.

| compound | cells | read by | result |
|---|---|---|---|
| Cc1cc(C)nc(NC(=S)NC(=O)c2ccccc2)n1 | MDCK | MTS | >300 µM |
| CO[C@@H]1[C@@H](OC(N)=O)[C@@H](O)[C@H](Oc2ccc3c(O)c(NC(=O)c4ccc(O)c(CC=C(C)C)c4)c(=O)oc3c2C)OC1(C)C | HeLa |  | 10 µg/mL |
| O=c1cc(-c2ccc(Oc3c(O)cc4oc(-c5ccc(O)cc5)cc(=O)c4c3O)cc2)oc2cc(O)cc(O)c12 | MDCK | visual reading | 1.4 µg/mL |
| CCCCCCCCCCCCCCCC[N+](C)(C)Cc1ccccc1 | MDA | MTT | 3.5 µM |
| Nc1cc(OCCOCP(=O)(O)O)ncn1 | HeLa S3 |  | <10 µM |
| Cc1cc(C(=O)NC2N=C(c3ccccc3)c3ccccc3NC2=O)oc1C | HEP-2 |  | 0.3 µM |
| Nc1ncc2ncn(CCOCP(=O)(O)O)c2n1 | HB611 |  | >100 µM |
| CC(C)(C)NC(=O)NC(=O)NC(=O)c1c(F)cccc1F | MDCK | MTS | >300 µM |
| Cc1ccc(C(=O)Nc2ccc(S(=O)(=O)O)c3cc(S(=O)(=O)O)cc(S(=O)(=O)O)c23)cc1NC(=O)c1cccc(NC(=O)Nc2cccc(C(=O)Nc3cc(C(=O)Nc4ccc(S(=O)(=O)O)c5cc(S(=O)(=O)O)cc(S(=O)(=O)O)c45)ccc3C)c2)c1 | HeLa |  | >140 µM |
| Nc1ccn([C@H]2CC[C@@H](CO)O2)c(=O)n1 | CFU-GM |  | 1.6 µM |
| Cc1nc(N)c2ncn(CC(CO)OCP(=O)(O)O)c2n1 | HB611 |  | >200 µM |
| COc1cc(-c2ccccc2)c(O)c(OC)c1O | P-388 | sulforhodamine / absorbance | >50 µM |
| COc1cc(Cl)nc(NC(=S)NC(=O)c2ccc(Cl)nc2)n1 | MDCK | MTS | >300 µM |
| Nc1nc2c(ncn2C[C@@H](CO)OCP(=O)(O)O)c(=O)[nH]1 | HB611 |  | >100 µM |
| O=C1c2c(O)cc(O)cc2O[C@H](c2ccc(O)cc2)[C@H]1c1c(O)cc(O)c2c(=O)cc(-c3ccc(O)c(O)c3)oc12 | HT-29 | sulforhodamine / absorbance | >50 µM |
| Nc1nc(OCCOCP(=O)(O)O)cc(=O)[nH]1 | CCRF-CEM |  | <10 µM |
| COc1cc2c(cc1O)[C@@H]1Cc3ccc(OC)c(O)c3CN1CC2 | KB cells |  | >20 µg/mL |
| CCCCCCCCCCCCCCCCOP(=O)([O-])OCC[N+](C)(C)Cc1ccccc1 | HUVEC | MTT | >100 µM |
| O=C1C[C@@H](c2ccc(O)cc2)Oc2cc(O)c(-c3c(O)cc4c(c3O)C(=O)C[C@@H](c3ccc(O)cc3)O4)c(O)c21 | MDCK | neutral red | 12 µg/mL |
| CCCCCCCCCCCCCCCC(=O)OCC(O)COC(=O)CCCCCCCCCCCCCCC | HeLa |  | 50–100 µg/mL |
| COc1cc(C)nc(NC(=S)NC(=O)c2ccc(-c3ccc([N+](=O)[O-])cc3)o2)n1 | MDCK | MTS | >300 µM |
| CC(C)(C)CC(C)(C)c1ccc(OCCOP(=O)([O-])OCCC[N+](C)(C)Cc2ccccc2)cc1 | HUVEC | MTT | >100 µM |
| Nc1ncnc2c1ncn2C[C@@H](CO)OCP(=O)(O)O | HB611 |  | 77.4 µM |
| Nc1cccc2c(-c3ccccc3)ccnc12 | J-Lat 10.6 | MTT | 17.36 µM |
| COc1cc(C)nc(NC(=S)NC(=O)c2ccc(-c3ccccc3Cl)o2)n1 | MDCK | MTS | >300 µM |
| Nc1ccn([C@@H]2CC[C@H](CO)O2)c(=O)n1 | IM9 |  | 33 µM |
| Nc1nc(=O)n(CC(CO)OCP(=O)(O)O)cc1-c1ccccc1 | HB611 |  | >200 µM |
| O=C(NC(=O)C1N=C(c2ccccc2)c2ccccc2NC1=O)C1CCCCC1 | VERO |  | 2 µM |
| O=c1cc(-c2ccc(O)c(-c3c(O)cc4oc(-c5ccc(O)cc5)cc(=O)c4c3O)c2)oc2cc(O)cc(O)c12 | BSC-1 | visual reading | <14 µg/mL |
| CN1CCc2cc3c(cc2C(=O)Cc2ccc4c(c2C1)OCO4)OCO3 | Vero cells |  | >3.5 µg/mL |
| COc1cc(O)cc2oc3cc(O)c(O)cc3c(=O)c12 | HT-29 | sulforhodamine / absorbance | >50 µM |
| Cc1c(N)nc([C@H](CC(N)=O)NC[C@H](N)C(N)=O)nc1C(=O)N[C@H](C(=O)N[C@H](C)[C@@H](O)[C@H](C)C(=O)N[C@H](C(=O)NCCc1nc(-c2nc(C(=O)NCCC[S+](C)C)cs2)cs1)[C@@H](C)O)C(O[C@@H]1O[C@@H](CO)[C@@H](O)[C@H](O)[C@@H]1O[C@H]1O[C@H](CO)[C@@H](O)[C@H](OC(N)=O)[C@@H]1O)c1cnc[nH]1 | HeLa |  | >200 µg/mL |
| COc1ccc(-c2cc(OC)c(O)c(OC)c2O)cc1 | 1A2 | XTT / absorbance | 390.9 µM |
| CCOc1cc(OCC)n2sc(=NC(=O)c3ccc(Cl)nc3)nc2n1 | MDCK | MTS | >300 µM |
| CCCCCCCCCCCCCCCCOP(=O)([O-])OCCC[N+](C)(C)C | HUVEC | MTT | >100 µM |
| Cc1cc(OCCOCP(=O)(O)O)nc(N)n1 | HeLa S3 |  | <10 µM |
| COc1ccc(Cl)c(C)c1C(=O)OC1CC(OC2C(O)CC(O[C@H]3CCC[C@@H]4[C@@H]3C=C[C@H]3CCCC/C=C/[C@@H]5C=C(C(=O)O)[C@H](C)C[C@]56OC(=O)C(=C6O)OC(=O)[C@@]43C)OC2C)OC(C)C1O | HeLa |  | 100 µg/mL |
| Cc1cccc(Cl)c1NC(=O)NC1N=C(c2ccccc2)c2ccccc2NC1=O | HEP-2 |  | 4 µM |
| COc1cc2c(cc1OC)CN(Cc1ccc(O)cc1)CC2 | Vero cells |  | >20 µg/mL |
| Nc1cc(=O)n(CCOCP(=O)(O)O)cn1 | CCRF-CEM |  | <10 µM |
| Cc1cc(C)nc(NC(=S)NC(=O)C2C(/C=C(/Cl)C(F)(F)F)C2(C)C)n1 | MDCK | MTS | >300 µM |
| Nc1cc(=O)n(CCOCP(=O)(O)O)c(N)n1 | CCRF-CEM |  | <10 µM |
| Nc1ncnc2c1ncn2CC(COCP(=O)(O)O)OCP(=O)(O)O | HB611 |  | >100 µM |
| O=C1c2c(O)cc(O)cc2O[C@@H](c2ccc(O)cc2)[C@@H]1c1c(O)cc(O)c2c(=O)cc(-c3ccc(O)c(O)c3)oc12 | HT-29 | sulforhodamine / absorbance | >50 µM |
| Nc1ccn(CCOCP(=O)(O)O)c(=O)n1 | HB611 |  | >400 µM |
| O=C1Nc2ccccc2C(c2ccccc2)=NC1NCc1ccccc1[N+](=O)[O-] | VERO |  | 20 µM |

The first 4 rows once more:

| compound | cells | read by | result |
|---|---|---|---|
| Cc1cc(C)nc(NC(=S)NC(=O)c2ccccc2)n1 | MDCK | MTS | >300 µM |
| CO[C@@H]1[C@@H](OC(N)=O)[C@@H](O)[C@H](Oc2ccc3c(O)c(NC(=O)c4ccc(O)c(CC=C(C)C)c4)c(=O)oc3c2C)OC1(C)C | HeLa |  | 10 µg/mL |
| O=c1cc(-c2ccc(Oc3c(O)cc4oc(-c5ccc(O)cc5)cc(=O)c4c3O)cc2)oc2cc(O)cc(O)c12 | MDCK | visual reading | 1.4 µg/mL |
| CCCCCCCCCCCCCCCC[N+](C)(C)Cc1ccccc1 | MDA | MTT | 3.5 µM |